Anti-infective test results gathered from many reports (values: NIAID ChemDB through PubChem).

All rows: whole-cell or culture tests; agent: Hepatitis C virus; method: replicon; measure: EC50

Blank or dashed fields: not listed here.

Fc1ccc(-c2ccc3nc(NCc4ccccn4)nc(NCC(F)(F)F)c3n2)cc1 ; result: <0.1 µM
NC(=O)COc1ccc2c(c1)S(=O)(=O)N=C(c1c(O)c3cc(F)ccc3n(CCC3CC3)c1=O)N2 ; strain or isolate: 1a 33772 ; result: 0.26 µM
CCc1ccc(-c2oc3ccc(F)cc3c2C(=O)NC)cc1 ; cells: Huh7 ; result: <10 µM
CC(C)S(=O)(=O)NC(=O)c1ccc2c(C3CCCCC3)c3n(c2c1)CC(C(=O)N1CCOCC1)Cc1ccccc1-3 ; cells: Huh7 ; result: 0.01–1 µM
CNC(=O)c1c(-c2ccc(F)cc2)oc2cc(-c3c(C)noc3C)c(OC(C)C)cc12 ; cells: Huh7 ; result: <1 µM
O=C(NS(=O)(=O)C1CC1)c1ccc2c(C3CCCCC3)c3n(c2c1)CC=Cc1ncccc1-3 ; cells: Huh7 ; result: 1–10 µM
CCOc1nc(NCCc2ccccc2)nc2ccc(-c3ccc(F)cc3)nc12 ; result: <0.1 µM
CNC(=O)c1c(-c2ccc(F)cc2)oc2cc(N)c(O)cc12 ; cells: Huh7 ; result: <30 µM
O=C(O)c1ccc2c(C3CCCCC3)c3n(c2c1)CCNc1ccccc1-3 ; cells: Huh7 ; result: 1–10 µM
CCOc1nc(NCc2ccc(F)cc2)nc2ccc(-c3cccc(NS(=O)(=O)CCN4CCCC4)c3)nc12 ; result: <0.1 µM
CCOc1cc2c(C(=O)NC)c(-c3ccc(F)cc3)oc2cc1N(CC)CC ; cells: Huh7 ; result: <1 µM
CC1=C(C(=O)N2CCOCC2)Cn2c(c(C3CCCCC3)c3ccc(C(=O)O)cc32)-c2ccccc21 ; cells: Huh7 ; result: 0.01–1 µM
CC(C)N1CCN(S(=O)(=O)c2cc(-c3ccc4nc(NCc5ccc(S(N)(=O)=O)cc5)nc(NCC(F)(F)F)c4n3)ccc2Cl)CC1 ; result: <0.1 µM
CNC(=O)c1c(-c2ccc(F)cc2)oc2cc(N(CC(F)(F)F)S(C)(=O)=O)c(OC)cc12 ; cells: Huh7 ; result: <1 µM
O=C(O)c1ccc2c(C3CCCCC3)c3n(c2c1)CC(C(=O)N1CCN(c2ccncc2)CC1)Cc1ccccc1-3 ; cells: Huh7 ; result: 0.01–1 µM
CCOc1nc(NCc2ccc(F)cc2)nc2ccc(-c3cccc(S(N)(=O)=O)c3)nc12 ; result: <0.1 µM
CCc1cc2c(C(=O)NC)c(-c3ccc(F)cc3)oc2cc1N(C)S(C)(=O)=O ; cells: Huh7 ; result: <1 µM
CC(C)(C)OC(=O)N1CC[C@@H](NS(=O)(=O)c2cc(-c3ccc4nc(NCc5ccc(S(N)(=O)=O)cc5)nc(NCC(F)(F)F)c4n3)ccc2F)C1 ; result: <0.1 µM
O=C(O)c1ccc2c(C3CCCCC3)c3n(c2c1)CCCCN(CCO)c1ccccc1-3 ; cells: Huh7 ; result: 1–10 µM
CNC(=O)c1c(-c2ccccc2)oc2ccc(OC)cc12 ; cells: Huh7 ; result: <10 µM
CCOc1nc(NCc2cccnc2)nc2ccc(-c3ccc(F)cc3)nc12 ; result: <0.1 µM

The last 3 rows once more:

smiles,strain or isolate,cells,result
O=C(O)c1ccc2c(C3CCCCC3)c3n(c2c1)CCCCN(CCO)c1ccccc1-3,-,Huh7,1–10 µM
CNC(=O)c1c(-c2ccccc2)oc2ccc(OC)cc12,-,Huh7,<10 µM
CCOc1nc(NCc2cccnc2)nc2ccc(-c3ccc(F)cc3)nc12,-,-,<0.1 µM

a–b is a range or a potency band. ECn is the concentration giving n% inhibition of infection, replication or growth. Conditions beyond the fields shown may differ between rows.